Reference: patent publication US11578091B2, “Process for the manufacture of maltosyl-isomaltooligosaccharides (MIMO)” (ISOThrive LLC, priority 2017, dated 2023)

System: extracellular hydrolytic enzyme
Assay: Hydrolysis of MIMO by DP during fermentation with NRRL B-742 (HPAEC-PAD)
Set-up: species or system Leuconostoc citreum NRRL B-742
Conditions: for susceptibility to hydrolysis during fermentation (in words): fermentation broth, L. citreum NRRL B-742, pH 5.5, 27° C.; for susceptibility to hydrolysis relative to DP 5: relative to quantity at 17 hours, trial #5

Structure (SMILES)	susceptibility to hydrolysis during fermentation (in words)	susceptibility to hydrolysis relative to DP 5 (at 24 hours of fermentation)	susceptibility to hydrolysis relative to DP 5 (at 42 hours of fermentation)
OC[C@H]1O[C@H](OC[C@H]2O[C@H](OC[C@H]3O[C@H](OC[C@H]4O[C@H](O[C@H]5[C@H](O)[C@@H](O)[C@@H](O)O[C@@H]5CO)[C@H](O)[C@@H](O)[C@@H]4O)[C@H](O)[C@@H](O)[C@@H]3O)[C@H](O)[C@@H](O)[C@@H]2O)[C@H](O)[C@@H](O)[C@@H]1O [DP 5]	little or no change	–	–
OC[C@H]1O[C@H](OC[C@H]2O[C@H](O[C@H]3[C@H](O)[C@@H](O)C(O)O[C@@H]3CO)[C@H](O)[C@@H](O)[C@@H]2O)[C@H](O)[C@@H](O)[C@@H]1O (stereo partly shown) [DP 3, panose]	destroyed relatively quickly	4.89	160.6
